Laboratory results: patent US20090004680A1

Target: Mouse synaptosomes (BoNT/A acceptor on a mouse synaptosome preparation)

In the case of “Active BoNT/A (botulinum neurotoxin type A) (from UniProt P0DPI0 2-1296)”, the percent binding inhibition is reported as greater than 20.
